Anti-infective test results gathered from many reports (values: NIAID ChemDB through PubChem).

All rows: tests on isolated targets; agent: HIV-1; target: Reverse transcriptase

Rows are shuffled and stem from different studies.

structure,dose,read-out,strain or isolate,mutations,method,value
Cc1ccc(-c2cn[nH]c2OCC(=O)Nc2ccc(-c3ccc(CC(=O)O)cc3)cc2Cl)c(Cl)c1,-,IC50,-,RT-K103 Y181C,PicoGreen / fluorescence,<1 µM
COc1ccc2c(c1)CN(c1nn3c(-c4cccs4)nnc3c3ccccc13)CC2,-,IC90,KER2008,-,RT activity / fluorescence,96.1 µM
CCN1c2ncc(CCOc3ccc(C(=O)N=c4ccn(O)cc4)cc3C)cc2C(=O)N(C)c2cccnc21,-,IC50,IIIB,RT-K103N Y181C,nucleotide incorporation / radiometric,<0.05 µM
CN1CCN(C(=O)c2ccc(NC(=O)CSc3nnnn3-c3ccc(C(C)(C)C)cc3Cl)c(Cl)c2)CC1,-,IC50,-,RT-K103 Y181C,PicoGreen / fluorescence,<1 µM
O=c1cc(Cc2ccccc2)nc(NCCCCO)[nH]1,-,Ki,-,RT-K103N,-,840 µM
CCc1cc(CCc2nc3ccccc3o2)c(=O)[nH]c1C,-,fold resistance,-,RT-Y181C,nucleotide incorporation,223.7
CCN1c2ncc(CCOc3ccc(-c4ccc(C(=O)O)cc4)cc3C)cc2C(=O)N(C)c2cccnc21,-,IC50,IIIB,-,nucleotide incorporation / radiometric,<0.05 µM
O=c1cc(Cc2ccccc2)nc(SCCCCO)[nH]1,-,Ki,-,RT-V179D,-,139 µM
CS(=O)(=O)Nc1ccc2c(c1)CN(c1nn3c(C4CC4)nnc3c3ccccc13)CC2,-,IC90,98US_MSC5016,-,RT activity / fluorescence,2.08 µM
CN1CCN(CC2(C#Cc3ccc(NC(=O)CSc4nnnn4-c4ccc(C5CC5)cc4Cl)c(Cl)c3)CC2)CC1,-,IC50,WT,-,PicoGreen / fluorescence,<1 µM
COC(=O)NCCCCNc1nc(Cc2ccccc2)c(C)c(=O)[nH]1,-,Ki,-,RT-V106A,-,>1000 µM
CN(C)CC(=O)NC(C)(C)C#Cc1ccc(NC(=O)CSc2nnnn2-c2ccc(C3CC3)cc2Cl)c(Cl)c1,-,IC50,WT,-,PicoGreen / fluorescence,<1 µM
Cc1ccc2c(c1)N(CC(C)C)C(=O)c1ccnnc1O2,330 µM,inhibition,-,-,ELISA,71%
CCN1c2ncc(CCOc3ccc(Nc4ccccn4)cc3C)cc2C(=O)N(C)c2cccnc21,-,IC50,IIIB,RT-K103N Y181C,nucleotide incorporation / radiometric,<0.05 µM
Cc1ccc2c(c1)N(C)C(=O)c1ccnnc1O2,33 µM,inhibition,-,-,ELISA,16%
CCN1c2ncc(CCOc3ccc(Nc4ccc(C(=O)O)cc4)cc3C)cc2C(=O)N(C)c2cccnc21,-,IC50,IIIB,-,nucleotide incorporation / radiometric,<0.05 µM
CCOC(=O)CN1C(=O)c2ccnnc2Oc2cc(C)ccc21,330 µM,inhibition,-,-,ELISA,49%
c1ccc(-c2nnc3c4ccccc4c(N4CCc5ccccc5C4)nn23)cc1,-,IC90,IIIB,-,RT activity / fluorescence,>100 µM
C/C(=C\c1ccc(NC(=O)CSc2nnnn2-c2ccc(C3CC3)cc2Cl)c(Cl)c1)C(=O)O,-,IC50,WT,-,PicoGreen / fluorescence,<1 µM
Cc1nnc2c3ccccc3c(N3CCC4CCCCC4C3)nn12,-,IC50,IIIB,-,RT activity / fluorescence,3.5 µM
O=C(COc1ccc(NC(=O)CSc2nnnn2-c2ccc(C3CC3)cc2Cl)c(Cl)c1)NCCc1ccncc1,-,IC50,-,RT-K103 Y181C,PicoGreen / fluorescence,<1 µM
Cc1nnc2c3ccccc3c(N3CCc4ccccc4C3)nn12,-,IC90,KER2008,-,RT activity / fluorescence,0.91 µM
CC(C)(C)c1ccc(-n2nnnc2SCC(=O)Nc2ccc(-c3ccc(OCC(=O)O)cc3Cl)cc2Cl)c(Cl)c1,-,IC50,WT,-,PicoGreen / fluorescence,<1 µM
COc1cc2c(cc1OC)CN(c1nn3c(C(F)F)nnc3c3ccccc13)CC2,-,IC90,98US_MSC5016,-,RT activity / fluorescence,2.54 µM
Cc1ccc(-n2nncc2SCC(=O)Nc2ccc(-c3ccc(CC(=O)O)cc3)cc2Cl)c(Cl)c1,-,IC50,-,RT-K103 Y181C,PicoGreen / fluorescence,<1 µM
Cc1nnc2c3ccccc3c(N3Cc4ccccc4C(C)(C)C3)nn12,-,IC90,98US_MSC5016,-,RT activity / fluorescence,70.3 µM
CC(C)(C)c1ccc(-n2nnnc2SCC(=O)Nc2ccc(NC(=O)C3CCCC3)cc2Cl)c(Cl)c1,-,IC50,WT,-,PicoGreen / fluorescence,<1 µM
Cc1ccc2c(c1)N(C(C)C)C(=O)c1cc(Cl)nnc1O2,330 µM,inhibition,-,-,ELISA,72%
CCN1c2ncc(CCOc3ccc(-c4ccc(C(=O)O)cc4)cc3)cc2C(=O)N(C)c2ccc(Cl)nc21,-,IC50,IIIB,-,nucleotide incorporation / radiometric,<0.05 µM
CC(C)(C#Cc1ccc(NC(=O)CSc2nnnn2-c2ccc(C(C)(C)C)cc2Cl)c(Cl)c1)OCC(=O)NNC(N)=O,-,IC50,WT,-,PicoGreen / fluorescence,<1 µM
CCN1c2ncc(CCOc3ccc(Nc4cccc(CC(=O)O)c4)cc3C)cc2C(=O)N(C)c2cccnc21,-,IC50,IIIB,-,nucleotide incorporation / radiometric,<0.05 µM
Cc1ccc(-c2nnsc2SCC(=O)Nc2ccc(-c3ccc(CC(=O)O)cc3)cc2Cl)c(Cl)c1,-,IC50,WT,-,PicoGreen / fluorescence,<1 µM
Cc1nnc2c3ccccc3c(N3CCc4ccc(N)cc4C3)nn12,-,IC90,IIIB,-,RT activity / fluorescence,3.15 µM
CCN1c2ncc(CCOc3ccc(NC(=O)Nc4ccc(C(=O)O)cc4)cc3C)cc2C(=O)N(C)c2cccnc21,-,IC50,IIIB,-,nucleotide incorporation / radiometric,<0.05 µM

A second listing of 3 rows from above:

structure,dose,read-out,strain or isolate,mutations,method,value
CCOC(=O)CN1C(=O)c2ccnnc2Oc2cc(C)ccc21,330 µM,inhibition,-,-,ELISA,49%
O=c1cc(Cc2ccccc2)nc(NCCCCO)[nH]1,-,Ki,-,RT-K103N,-,840 µM
CS(=O)(=O)Nc1ccc2c(c1)CN(c1nn3c(C4CC4)nnc3c3ccccc13)CC2,-,IC90,98US_MSC5016,-,RT activity / fluorescence,2.08 µM

Inhibition is in % at the dose shown (toxicity tests: loss of growth or viability). Fold resistance: result on the changed form divided by that on wild type. ICn is the concentration giving n% inhibition. An empty or dashed field is not shown.